These results are taken from article PMC5285506.

The test system of this data set is T1, Rob.
T1 sequence (looked up): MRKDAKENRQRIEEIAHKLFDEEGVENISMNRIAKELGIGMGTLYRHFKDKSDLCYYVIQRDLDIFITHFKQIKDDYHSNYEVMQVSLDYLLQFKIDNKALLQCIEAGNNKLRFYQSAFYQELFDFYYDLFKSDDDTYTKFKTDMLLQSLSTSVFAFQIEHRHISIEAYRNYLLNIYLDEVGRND
The experiment in a line: EMSA. Particulars: 0.1-1.5 ug Rob, outcompeted by 100-fold unlabeled specific DNA; 10 mM HEPES pH 8.0, 60 mM KCl, 4 mM MgCl2, 0.1 mM EDTA, 0.1 mg/ml BSA, 0.25 mM DTT, 5% glycerol, 1 ug salmon sperm DNA and 1 ug poly(dI-dC) per 20 ul; recombinant protein; residues 1-185; protein details: His6 (pET-28a(+)); label: biotin 5' (ica-p-R); probe letters rebuilt from the primers and the genome. For orientation: Mobility shift assays separate free from complexed probe on a gel.

For at least one entry, the source does not settle the construct or the ends of the probe. Protein sequences can lack the tags named with them.

On to “ATTGCGTTATCAATAATCTTATCCTTCAATTTTTATAACCCCCTACTGAAAATTAATCACACTATGTTACAGGAAAATTAAGTTGCAATTACAAATATTTCCGTTTAATTATAACAACAATCTATTGCAAATTAAAATACTATCAATTACCATATGGCTTACAACCTAACTAACGAAAGGTAGGTAAAGGAATTGCAA (double strand) [FULL (icaR-icaA intergenic, 198 bp)]”, for which the binding result is listed as “binds”.
